SMILES strings stand for the structures.

Here are results for seven molecules from PMC5404532, “Simplified Reversed Chloroquines To Overcome Malaria Resistance to Quinoline-Based Drugs” (Antimicrobial Agents and Chemotherapy, 2017).

This data set deals with mouse spleen lymphocytes. In words: Cytotoxicity against mouse spleen lymphocytes. Type of data set: cell-based. Particulars: unitless; cytotoxicity/efficacy against D6.
`Clc1ccc2c(NCCCN3CCN(c4cccc(-c5ccccc5)c4)CC3)ccnc2c1` [Compound 7, N-(3-(4-(Biphenyl-3-yl)piperazin-1-yl)propyl)-7-chloroquinolin-4-amine]: the “T.I. (therapeutic index)” value was 2,300.

As to `CN(CCCNc1ccnc2cc(Cl)ccc12)CCCN1c2ccccc2CCc2ccccc21` [Compound 1], the “T.I. (therapeutic index)” value was 240.

As to `Clc1ccc2c(NCCCN3CCN(c4ccccc4-c4ccccc4)CC3)ccnc2c1` [Compound 6, N-(3-(4-(Biphenyl-2-yl)piperazin-1-yl)propyl)-7-chloroquinolin-4-amine], the “T.I. (therapeutic index)” value is reported as 1,400.

`Clc1ccc2c(NCCCN3CCN(c4ccc(-c5ccccc5)cc4)CC3)ccnc2c1` [Compound 8, N-(3-(4-(Biphenyl-4-yl)piperazin-1-yl)propyl)-7-chloroquinolin-4-amine]: the “T.I. (therapeutic index)” value is on record as 3,700.

As for `Clc1ccc2c(NCCCN3CCN(C(c4ccccc4)c4ccccc4)CC3)ccnc2c1` [Compound 3], the “T.I. (therapeutic index)” value was determined as 580.

On to `O=C(CNCCNc1ccnc2cc(Cl)ccc12)N(Cc1ccccc1)Cc1ccccc1` [Compound 2], for which the “T.I. (therapeutic index)” value was 4,400.

For `Clc1ccc2c(NCCCN3CCN(c4ncccn4)CC3)ccnc2c1` [Compound 23, 7-Chloro-N-(3-(4-(pyrimidin-2-yl)piperazin-1-yl)propyl)quinolin-4-amine], the “T.I. (therapeutic index)” value is given as 20,000.
